Results from US9120849B2 (priority 2000, dated 2015).

System: HIV RNA
Experiment: Roche COBAS HIV-1 Monitor PCR assay quantitating HIV RNA copy number of inactivated virus
Design: species or system human immunodeficiency virus (HIV)
Conditions: samples diluted 1:1000, copy number at this dilution

paraformaldehyde
HIV RNA copy no. (HIV treated with 0.63% paraformaldehyde): 325,000 | HIV RNA copy no. (HIV treated with 1.25% paraformaldehyde): 48,000 | HIV RNA copy no. (HIV treated with 2.50% paraformaldehyde): 12,678 | HIV RNA copy no. (HIV treated with 5.00% paraformaldehyde): 7,192
